Experimental data taken from ChEMBL document CHEMBL3822423 (J Med Chem, 2016).
Converted amounts (≈) assume the structure as drawn.

How the values were obtained:
[1] = system: Staphylococcus aureus; assay: Antibacterial activity against methicillin/quinolone-resistant Staphylococcus aureus ATCC 700699 at 0.5 ug/ml incubated for 12 hrs measured after 7 passages
[2] = system: Staphylococcus aureus; assay: Antibacterial activity against methicillin resistant Staphylococcus aureus N315 at 0.5 ug/ml incubated for 12 hrs measured after 12 passages
[3] = system: Staphylococcus aureus; assay: Potency index, ratio of norfloxacin MIC to compound MIC for methicillin-resistant Staphylococcus aureus N315
[4] = system: Staphylococcus aureus; assay: Potency index, ratio of chloromycin MIC to compound MIC for methicillin-resistant Staphylococcus aureus N315
[5] = system: Staphylococcus aureus; assay: Antibacterial activity against methicillin/quinolone-resistant Staphylococcus aureus ATCC 700699 measured after 6 passages
[6] = system: Staphylococcus aureus; assay: Antibacterial activity against methicillin resistant Staphylococcus aureus N315 measured after 6 passages
[7] = system: Staphylococcus aureus; assay: Ratio of MIC measured after 6 passages to MIC measured after 1 passage for methicillin/quinolone-resistant Staphylococcus aureus ATCC 700699

`CCn1cc(-c2csc(N)n2)c(=O)c2cc(N3CCCC3)c(Cl)cc21` showed an MIC [1] of 2 µg/mL (≈ 5.33 µM), an MIC [2] of 0.5 µg/mL (≈ 1.33 µM) and a Ratio [3] of 13. The Ratio [4] was 27, the MIC [5] was 512 µg/mL (≈ 1370 µM) and the MIC [6] was 267 µg/mL (≈ 711 µM). The Ratio [7] was 32.
